Results taken from ChEMBL document CHEMBL3045666, “The phytotoxicity of natural tetramic acid derivatives” (Pest Manag Sci, 2011).

Assay: Inhibition of 4-hydroxyphenylpyruvate dioxygenase

SMILES: CC[C@H](C)[C@H]1NC(=O)/C(=C(\C)O)C1=O
- IC50: 18 µM
